Experiment [1] concerns the target SARS-CoV-2 BQ.1.1 S glycoprotein (SARS-CoV-2 BQ.1.1). In words: cell-based or functional assay.
Experiment [2] has as its target T1, SARS-CoV-2 CH.1.1 RBD (SARS-CoV-2 CH.1.1).
T1 construct: domain: RBD
Put plainly: RBD binding affinity (SPR, see Example 5).

B1: S2V29-v1.2 (antibody, V domains shown)
VH: EVQLVESGGSVVQPGRALRLSCAASGITFSSFGMYWVRQAPGKGLEWLGVIAYDGSNTYYADSVKGRFTISRDNSKNTLYLQMNSLRIEDTAVYYCAKDYYPLLSYYYGLDVWGQGTTVTVSS
VL: QSVLTQPRSVSGSPGQSVTISCTGTSSDVGAYNYVSWYQQHPGKAPKFMIYDVDQRPSGVPDRFSGSKSGNTASLIISGLQAEDEADYYCSSYAGSYIWVFGGGTQLTVL
Consider B1, for which, in experiment [1], the “FC Compared to BQ.1.1” value was found to be 1 fold.

B2: S2V29-v37.2 (antibody, V domains shown)
VH: EVQLVESGGSVVQPGRALRLSCAASGITFSSFGMYWVRQAPGKGLEWLGYIAYDGSDTYYADSVKGRFTISRDNSKNTLYLQMNSLRIEDTAVYYCAKDYYPLLSYYYGLDVWGQGTTVTVSS
VL: QSVLTQPRSVSGSPGQSVTISCTGTSSDVGAYNYVSWYQQHPGKAPKFMIYDVDQRPSGVPDRFSGSKSGNTASLIISGLQAEDEADYYCSSYAGSYIWVFGGGTQLTVL
In experiment [2], B2 displayed a Kd of 90 pM. In experiment [1], the “FC Compared to BQ.1.1” value turned out to be 1 fold.

As usually defined, the Kd is the equilibrium constant for the complex coming apart. A lower Kd goes with a tighter complex.

Source of the values: patent publication US20260274928A1 (VIR BIOTECHNOLOGY, published 2026).
